Where two headings read alike, the source gives them in different places.
What was measured:
[1] = test system: axenic amastigotes of L. (V) panamensis; format: cell-based
Protocol: (§1) Virulent L. (V) panamensis MHOM/CO/87/UA140 strain transfected with green fluorescent protein gene called L. (V) panamensis-pIR-eGFP was maintained by successive passaging in golden hamsters (Mesocricetus auratus). Briefly, amastigotes were aspirated from cutaneous lesions of hamsters experimentally infected with promastigotes of L. (V) panamensis-pIR-eGFP. Samples were cultured in biphasic culture with Novy-MacNeal-Nicholle (NNN) medium as solid phase and PBS plus glucose, pH 6.9 as liquid phase and incubated at 26 °C to obtain promastigotes. Medium was changed every week until 2 months.
The axenic amastigotes were obtained from promastigotes cutured in Schneider’s medium, as described elsewhere. Briefly, promastigotes of L. (V) panamensis-pIR-eGFP at 5 × 10^6 parasites/mL were cultured in Schneider medium (Sigma), pH 5.4 supplemented with 20% FBS and 1% antibiotics and incubation at 26 °C. Every three days, medium was changed and temperature was increased one degree each time until it reached 32 °C at which the transformation of the promastigotes into axenic amastigotes is achieved. After three days of growing as axenic amastigotes, parasites were ready to be used in the antileishmanial testing assay as described below.
The ability of compounds to kill axenic amastigotes of L. (V) panamensis was determined based on the viability of the parasites after exposure to each compound evaluated by the MTT method following the methodology described by others. Axenic amastigotes obtained as described above were harvested, washed, and adjusted at 2 × 10^6 parasites/mL in fresh Schneider’s medium with 20% FBS. Into each well of a 96-well plate 100 µL of parasite suspension (2 × 10^5 axenic amastigotes) were dispensed and then 100 µL of each concentration of the corresponding compound were added. […] Plates were incubated at 32 °C. After 72 h of incubation, the effect of each compound was determined by adding 10 µL/well of MTT and incubating at 32 °C for 3 h. The reaction was stopped as described above and the quantity of formazan produced was measured in a plate reader spectrophotometer (Bio-Rad) set at 570 nm. Axenic amastigotes cultivated in the absence of any compound but maintained under the same conditions were used as controls for growth and viability (negative control) while parasites cultivated in the presence of MA were used as controls for leishmanicidal activity (positive control). Assays were performed at least twice with three replicates per each concentration tested.
In turn, activity of compounds with axenic amastigotes was determined according to the reduction of parasite growth percentages obtained for each experimental condition. The percentage of parasite growth was calculated first using Equation (5): % parasite growth = (O.D. treated ax. amastigotes)/(O.D. of untreated ax. amastigotes) × 100(5) where the O.D. of the untreated axenic amastigotes corresponds to 100% parasite growth. Then, the percentage of parasite growth inhibition was calculated using Equation (6): % parasite growth inhibition = 100 − % parasite growth(6)

[2] = test system: intracellular amastigotes of L. (V) panamensis-pIR-eGFP; format: cell-based
Protocol: as §1
Intracellular amastigotes were obtained after infection of U-937 cells with promastigotes. Briefly, U-937 cells were dispensed in 24-well plates at a concentration of 300,000 cells/well and were treated with 1 µM of phorbol myristate acetate (PMA) (Sigma) for 48 h at 37 °C. Then, cells were infected with promastigotes in stationary growth phase (day 5) at a ratio of 1:15 cell/parasite and incubated for 3 h at 34 °C in 5% CO2. […] After 24 h of infection, cells were ready to be used in antileishmanial testing assay as described below.
The effect of compounds against intracellular amastigotes of L. (V) panamensis-pIR-eGFP was evaluated by flow cytometry using the methodology described by others. […] Infected and treated cells were maintained at 34 °C and 5% CO2 for 72 h. After 72 h, cells were washed twice with 1 mL of cold PBS and cells were removed from the bottom plate with a trypsin/EDTA ([…]) solution. Recovered cells were centrifuged at 1100 rpm for 10 min at 4 °C, the supernatant was discarded and cells were washed with 1 mL of cold PBS and centrifuged at 1100 rpm for 10 min at 4 °C. Supernatant was discarded and cells were suspended in 500 μL of PBS and analyzed by flow cytometry (FC 500MPL, Cytomics, Brea, CA, USA) using histogram analyses (Figure 2). […] Each concentration of compounds was tested in triplicate in two independent experiments.
The antileishmanial activity in intracellular amastigotes was determined according to the reduction of infected cells and parasite load (viable parasites inside infected cells) obtained for each experimental condition. The percentage of infected cell inhibition and parasite load for each concentration of each compound were calculated first using Equation (3): % infection = (% infected and treated cells ÷ % infected and untreated cells) × 100(3)
And then, the percentage of infection inhibition was calculated using Equation (4): % Inhibition = 100 − % infection(4)

[3] = Selectivity Index = LC50/EC50 (U-937 LC50 / axenic amastigote EC50)
[4] = Selectivity Index = LC50/EC50 (U-937 LC50 / intracellular amastigote EC50)

Molecule	Axenic Amastigotes SI [1, 3]	Intracellular Amastigotes SI [2, 4]	Axenic Amastigotes SI ([1]; ratio CC50 / EC50)	Intracellular Amastigotes SI [2]
C[N+](C)(CI)CCCC=C(c1ccccc1)c1ccccc1.[I-] [Compound 2b, N-Iodomethyl-N,N-dimethyl-N-(5,5-diphenyl-4-penten-1-yl)ammonium iodide]	0.5	0.4	–	–
C[N+](C)(C)CCC=C(c1ccccc1)c1ccccc1.[I-] [Compound 3a, N,N,N-Trimethyl-N-(4,4-diphenylbut-3-en-1-yl)ammonium iodide]	1.5	1.3	–	–
C[C@@H]1[C@H](O)[C@@H](C)/C=C/C=C/C=C/C=C/C=C/C=C/C=C/[C@H](O[C@@H]2O[C@H](C)[C@@H](O)[C@H](N)[C@@H]2O)C[C@@H]2O[C@](O)(C[C@@H](O)C[C@@H](O)[C@H](O)CC[C@@H](O)C[C@@H](O)CC(=O)O[C@H]1C)C[C@H](O)[C@H]2C(=O)O [AmB, Amphotericin B, reference compound]	–	–	690	560
C[N+](C)(CI)CCC=C(c1ccccc1)c1ccccc1.[I-] [Compound 2a, N-Iodomethyl-N,N-dimethyl-N-(4,4-diphenylbut-3-en-1-yl)ammonium iodide]	1.3	1.7	–	–
meglumine antimoniate [MA, reference compound]	–	56.6	–	–
C[N+](C)(C)CCCCC=C(c1ccccc1)c1ccccc1.[I-] [Compound 3c, N,N,N-Trimethyl-N-(6,6-diphenylhex-5-en-1-yl)ammonium iodide]	0.4	0.3	–	–
C[N+](C)(C)CCCC=C(c1ccccc1)c1ccccc1.[I-] [Compound 3b, N,N,N-Trimethyl-N-(5,5-diphenylpent-4-en-1-yl)ammonium iodide]	1.1	1.2	–	–
C[N+](C)(CCl)CCO [Compound 4a, N-Choromethyl-N,N-dimethyl-N-(2-hydroxyet-1-yl)ammonium iodide]	0.7	0.6	–	–
C[N+](C)(CCl)CCC=C(c1ccccc1)c1ccccc1.[I-] [Compound 1a, N-Chloromethyl-N,N-dimethyl-N-(4,4-diphenylbut-3-en-1-yl)ammonium iodide]	1.3	1.2	–	–
C[N+](C)(CCl)CCCCC=C(c1ccccc1)c1ccccc1.[I-] [Compound 1c, N-Chloromethyl-N,N-dimethyl-N-(6,6-diphenylhex-5-en-1-yl)ammonium iodide]	0.5	0.4	–	–
C[N+](C)(CI)CCO [Compound 4b, N-Iodomethyl-N,N-dimethyl-N-(2-hydroxyet-1-yl)ammonium iodide]	0.9	0.7	–	–
C[N+](C)(CI)CCCCC=C(c1ccccc1)c1ccccc1.[I-] [Compound 2c, N-Iodomethyl-N,N-dimethyl-N-(6,6-diphenylhex-5-en-1-yl)ammonium iodide]	0.7	0.5	–	–
C[N+](C)(C)CCO.[I-] [Compound 4c, (2-Hydroxyethyl)trimethylammonium iodide, reference compound]	7.9	2.5	–	–
C[N+](C)(CCl)CCCC=C(c1ccccc1)c1ccccc1.[I-] [Compound 1b, N-Chloromethyl-N,N-dimethyl-N-(5,5-diphenylpent-4-en-1-yl)ammonium iodide]	0.4	0.5	–	–

Source: paper PMC6273649, “Synthesis of Novel Quaternary Ammonium Salts and Their in Vitro Antileishmanial Activity and U-937 Cell Cytotoxicity” (Molecules, 2016)
